Assay results reported in paper PMC10837205, “LDLR is an entry receptor for Crimean-Congo hemorrhagic fever virus” (2024).

Molecular target: biotinylated soluble human LDLR (sohLDLR), human, P01130-1 22-788
Assay: BLI

monomeric Gc ectodomain of CCHFV IbAr 10200 strain biotin (biotinylated; site not stated)
Kd: 0.0426 µM
